According to patent EP3464307B1, “BISPHOSPHONATE QUINOLONE CONJUGATES AND USES THEREOF” (dated 2026):

Columns and labels:
[1] = tested on: biofilms of Aggregatibacter actinomycetemcomitans (Aa; wild-type rough strain D7S-1; serotype a); assay: Jawbone peri-implant osteomyelitis animal model, first experiment; details: for activity compared to ciprofloxacin alone in multiple doses: conjugate 10 mg/kg single dose versus ciprofloxacin 30 mg/kg total
[2] = tested on: Aggregatibacter actinomycetemcomitans (Aa; wild-type rough strain D7S-1; serotype a); assay: MIC assay against planktonic Aa; details: Example 1
[3] = tested on: biofilms of S. aureus strain ATCC-6538; assay: Susceptibility testing against preformed biofilms on HA discs; details: all tested concentrations versus control, Kruskal-Wallis test
[4] = tested on: biofilms of P. aeruginosa strain ATCC-15442; assay: Susceptibility testing against preformed biofilms on polystyrene; details: polystyrene substrate
[5] = tested on: biofilms of S. aureus strain ATCC-6538; assay: as above; details: polystyrene substrate
[6] = tested on: biofilms of Aggregatibacter actinomycetemcomitans strain D7S-5; assay: Susceptibility testing against biofilms grown on HA; details: result in words
[7] = tested on: biofilms of Aggregatibacter actinomycetemcomitans (Aa; wild-type rough strain D7S-1; serotype a); assay: Jawbone peri-implant osteomyelitis animal model, second animal experiment
[8] = tested on: S. aureus strain ATCC-6538; assay: Time-kill assay (CLSI); details: planktonic
MRSA strain MR4-CIPS = assay: Time-kill assay (CLSI); details: planktonic
S. aureus ATCC6538 = assay: Survival of biofilm bacteria after 24 hrs on pretreated, rinsed HA discs; details: even at very high concentrations

O=C(O)c1cn(C2CC2)c2cc(N3CCNCC3)c(F)cc2c1=O
log reduction in bacterial count (CFU per gram of tissue) ([1]; ciprofloxacin 10 mg/kg 3x/week (30 mg/kg total), intraperitoneal): 1 log | MIC^90 [2]: 2 µg/mL (≈ 6.04 µM) | bactericidal activity and reduction of CFUs against established biofilms on HA [3]: statistically significant bactericidal activity

O=C(O)c1cn(C2CC2)c2cc(N3CCN(C(=O)Oc4ccc(CC(P(=O)(O)O)P(=O)(O)O)cc4)CC3)c(F)cc2c1=O
MBIC90 [4]: no MBIC90 was observed | MBIC90 [5]: no MBIC90 was observed | antimicrobial activity against Aa biofilms grown on HA [6]: effective antimicrobial activity | recoverable bacteria ([1]; conjugate 0.3 mg/kg x3 (0.9 mg/kg total), intraperitoneal): no recoverable bacteria | activity compared to ciprofloxacin alone in multiple doses [1]: nearly an order of magnitude greater activity | activity compared to ciprofloxacin alone in multiple doses ([1]; listed as BCC (6)): approximately as effective as ciprofloxacin | activity compared to ciprofloxacin alone in multiple doses ([1]; listed as BCC (compound 6)): an order of magnitude greater activity | greater bactericidal activity than the multiple dosing regimen of ciprofloxacin ([1]; conjugate 10 mg/kg single dose versus ciprofloxacin multiple doses): 1 log | log reduction in bacterial count (CFU per gram of tissue) ([1]; conjugate 10 mg/kg single dose, intraperitoneal, versus negative control, one week after pharmacotherapy): 2 log | tolerability, adverse events ([1]; intraperitoneal dosing, study period): no potential systemic toxicity or adverse effects | bactericidal activity and reduction of CFUs against established biofilms on HA ([3]; listed as BP-ciprofloxacin): statistically significant bactericidal activity | bactericidal activity and reduction of CFUs against established biofilms on HA ([3]; listed as conjugate): statistically significant bactericidal activity | log units of kill (CFU of Aa from resected peri-implant tissue) ([7]; 10 mg/kg single dose, intraperitoneal): approximately 6 log units | significance of CFU reduction versus control ([7]; multiple low dose 0.3 mg/kg 3x/week, p>0.05): not for the multiple low dose group | efficacy for reducing mean CFU/gram of tissue versus control ([7]; single high dose 10 mg/kg, unpaired t-test p=0.0005, listed as BCC (6), 10 mg/kg): greatest efficacy | time to bactericidal activity / evident prevention of bacterial growth at half the MIC ([8]; 1/2x MIC, listed as conjugate): ≤ 1 h | time to bactericidal activity at the established MIC ([8]; 1x MIC): ≤ 1 h | time to bactericidal activity / evident prevention of bacterial growth at half the MIC (MRSA strain MR4-CIPS; 1/2x MIC, listed as conjugate): ≤ 1 h | time to bactericidal activity at the established MIC (MRSA strain MR4-CIPS; 1x MIC): ≤ 1 h

O=C(O)c1cn(C2CC2)c2cc(N3CCN(C(=O)c4ccc(CC(P(=O)(O)O)P(=O)(O)O)cc4)CC3)c(F)cc2c1=O
inhibition of biofilm growth on pretreated HA (S. aureus ATCC6538): no significant antimicrobial activity | inhibition of biofilm growth on pretreated HA (S. aureus ATCC6538; listed as BAC (11)): did not inhibit the growth of biofilms

Converted amounts (≈) assume the structure as drawn.
